Anti-infective test results gathered from many reports (values: NIAID ChemDB through PubChem).

All rows: whole-cell or culture tests; agent: Hepatitis C virus; endpoint: EC50

ECn: concentration that inhibits the pathogen or its effect by n%.

SMILES	strain	read by	cell line	value
CCCCCCCCOc1ccc(N(C(=O)COC(C)=O)c2nc(-c3ccc(F)cc3)cs2)cc1				<1 µM
CC1CCCN1C(=O)CCC(=O)N1c2cccc(O)c2NC2=C(C(=O)CC(C)(C)C2)C1c1ccc(OCc2ccccc2)cc1Cl	1b	luciferase / reporter gene / replicon		3.7 µM
CCCCCCOc1ccc(N(C(N)=O)c2nc(-c3cccnc3)cs2)cc1				<1 µM
CC1CCC(C(=O)N(c2cc(-c3ccc(-c4cn5ccsc5n4)cc3)sc2C(=O)O)C2CCOCC2)CC1	1b	replicon / ELISA		0.01–0.049 µM
CC(C)CC[C@@]1(C)C(=O)C(C2=NS(=O)(=O)c3cc(NS(C)(=O)=O)ccc3N2)=C(O)c2ccccc21	1a	luciferase	Huh7	0.0068 µM
CC(C)N1CCC(Nc2nc(NCc3ccc(F)cc3)nc3ccc(-c4ccc(F)cc4)nc23)CC1		replicon		<0.1 µM
O=C(O)c1sc(-c2ccc(-c3cc4ncccn4n3)cc2)cc1N(C(=O)C1CCC(C(F)(F)F)CC1)C1CCOCC1	1a	replicon / ELISA		0.01–0.049 µM
COCCNc1nc(N)nc2ccc(-c3ccc(NC(=O)C(C)C)cc3)nc12		replicon	Huh7	<0.3 µM
CCOC(=O)CNC(=O)N1c2cccc(O)c2NC2=C(C(=O)CC(C)(C)C2)C1c1ccc(OCc2ccccc2)cc1Cl	1b	luciferase / reporter gene / replicon		4.92 µM
CC1CCC(C(=O)N(c2cc(-c3ccc(-c4cc5ncccc5o4)cc3)sc2C(=O)O)C2CCOC2)CC1	1b	replicon / ELISA		0.005–0.0099 µM
CNC(=O)c1c(-c2ccc(F)cc2)oc2cc(N(CCO)S(C)(=O)=O)c(C3CC3)cc12	C316N genotype 1b	luciferase	Huh7.5	0.257 µM
CS(=O)(=O)CCNc1nc(NCc2ccc(S(N)(=O)=O)cc2)nc2ccc(-c3ccc(F)c(NS(=O)(=O)C4CC4)c3)nc12		replicon		0.1–0.25 µM
COCCN(C(=O)C1CCC(C)CC1)c1cc(-c2ccc(-c3cc4ccccc4o3)cc2)sc1C(=O)O	1a	replicon / ELISA		0.001–0.0049 µM
CCCCCCCCOc1ccc(N(C(=O)CN(C)C)c2nc(-c3cccnc3)cs2)cc1C(F)(F)F				<1 µM
CC1(C)CC(=O)C2=C(C1)Nc1c(O)cccc1N(C(=O)CCC(=O)N1CCN(C(=O)c3ccccc3)CC1)C2c1ccc(OCc2ccccc2)cc1Cl	1b	luciferase / reporter gene / replicon		5.22 µM
CS(=O)(=O)CCNc1nc(NCc2ccc(S(N)(=O)=O)cc2)nc2ccc(-c3ccc(F)cc3)nc12		replicon		<0.1 µM
CCOCCN(C(=O)C1CCC(C)CC1)c1cc(-c2ccc(-c3cn4ccsc4n3)cc2)sc1C(=O)O	1b	replicon / ELISA		0.01–0.049 µM
NC(=S)Nc1cccc(OCCCCCOc2cccc(C(=O)c3ccccc3)c2)c1		reporter gene / fluorescence	Ava5-EG(delta4AB)SEAP	0.001–1 µM
CC1CCC(C(=O)N(c2cc(-c3ccc(-c4cc5ncccn5n4)cc3)sc2C(=O)O)C2CCOCC2)CC1	1a	replicon / ELISA		0.001–0.0049 µM
CC1(C)CC(=O)C2=C(C1)Nc1c(O)cccc1N[C@@H]2c1ccc(OCc2ccccc2)cc1F	1b	luciferase / reporter gene / replicon		1.09 µM
CCCCCOc1ccc(N(C(=O)C(=O)OC)c2nc(-c3cccnc3)cs2)cc1F				<1 µM
CC1CCC(C(=O)N(c2cc(-c3ccc(-c4cc5ncccc5o4)cc3)sc2C(=O)O)C2CCOCC2)CC1	1a	replicon / ELISA		<0.001 µM
CCCCCCCCc1ccc(N(C(N)=O)c2nc(-c3cccnc3)c(F)s2)cc1C(F)(F)F				<1 µM
CCCCNC(=O)c1ccc(-c2ccc3nc(N)nc(OCC)c3n2)cc1		replicon	Huh7	0.3–1 µM
CC(C)(CCOc1ccc(-c2ccccc2)cc1)CCOc1cccc(NC(N)=S)c1		reporter gene / fluorescence	Ava5-EG(delta4AB)SEAP	0.001–1 µM
CCOc1nc(NCc2ccc(F)cc2)nc2ccc(-c3ccc(C(=O)NC(C)(C)CN4CCCC4)cc3)nc12		replicon		<0.1 µM
CCCCCCCCCCCCCCOC(=O)NC(CCC(=O)O)(CCC(=O)O)CCC(=O)O	1b	replicon / PCR	Huh7-Luc	0.013 µM
CCc1ccc(OCc2ccc(C3C4=C(CC(C)(C)CC4=O)Nc4c(O)cccc4N3C(=O)C(C)C)o2)cc1	1b	luciferase / reporter gene / replicon		1.05 µM
CCOc1nc(NCc2ccc(S(N)(=O)=O)cc2)nc2ccc(-c3ccc(NC(=O)C(C)N)cc3)nc12		replicon		<0.1 µM
CC1(C)CC(=O)C2=C(C1)Nc1c(O)cccc1N(C(=O)NCCC(=O)O)C2c1ccc(OCc2ccccc2)cc1Cl	1b	luciferase / reporter gene / replicon		>100 µM
Cc1ccc(-c2ccc(OCCCCCOc3cccc(NC(N)=S)c3)cc2)cc1		reporter gene / fluorescence	Ava5-EG(delta4AB)SEAP	0.001–1 µM
COCCN(C(=O)C1CCC(C(F)(F)F)CC1)c1cc(-c2ccc(-c3cc4ncccc4o3)cc2)sc1C(=O)O	1a	replicon / ELISA		0.1–0.49 µM
CCC(=O)c1c(-c2ccc(F)cc2)oc2cc(N(CCO)S(C)(=O)=O)c(C3CC3)cc12		luciferase	JFH1	0.1564 µM
CC1(C)CC(=O)C2=C(C1)Nc1c(O)cccc1N(C(=O)CCC(=O)NC(C)(C)C)C2c1ccc(OCc2ccccc2)cc1Cl	1b	luciferase / reporter gene / replicon		6.69 µM
CC(C)(C)OC(=O)Nc1ccc2c(c1)Cc1cc(NC(N)=S)ccc1-2		reporter gene / fluorescence	Ava5-EG(delta4AB)SEAP	0.001–1 µM
NS(=O)(=O)c1ccc(CNc2nc(NCC(F)(F)F)c3nc(-c4ccc(Cl)cc4)ccc3n2)cc1		replicon		<0.1 µM
CCCCCCCCOc1ccc(N(C(=O)CO)c2nc(-c3cccnc3)cs2)cc1C(F)(F)F				<1 µM
NC(=S)Nc1cccc(OCCCCCOc2ccc(-n3cccc3)cc2)c1		reporter gene / fluorescence	Ava5-EG(delta4AB)SEAP	0.001–1 µM
Fc1ccccc1-c1nc2cc[n+](Cc3ccc(-c4ccc(C(F)(F)F)cc4C(F)(F)F)nn3)cc2[nH]1		luciferase	JFH1	22.05 µM
CCCCCOc1ccc(N(C(N)=O)c2nc(-c3cccnc3C)cs2)cc1C(F)(F)F				<1 µM
NC(=S)Nc1cccc(OCCCCCOc2ccc(-c3ccoc3)cc2)c1		reporter gene / fluorescence	Ava5-EG(delta4AB)SEAP	0.001–1 µM

Two numbers with a dash give a range or band. Blank or dashed fields: not listed here. Lines come from different laboratories, so protocols vary.